These results are taken from patent US20240180982A1 (published 2024).

The target of the test is CAR on CHO-CAR cells (human) (UniProt P78310). As to the kind of experiment: FACS. Also noted: unit not given beside the values.

Turning to “Recombinant HAdV-C5 fiber knob protein (from UniProt P11818 387-581)”, the IC50 is listed as 0.0001804 ?.
